# Source: PubChem BioAssay AID1845 (The Scripps Research Institute Molecular Screening Center, 2009)
# This is a selection; strong and weak results do not stand in their true shares. Calls of active or inactive are those of the source. Rule as the data show it: active = inhibition above about 37%; inactive = the rest.
# Experiment: DNA intercalator displacement agents – biochemical, FID fluorescence, artefact control for HCV NS3 helicase inhibitor project, primary screen (AID 1845);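 also: 0% = vehicle and 100% = reference compound; higher means more ethidium bromide displaced from hairpin DNA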
# Details: DNA fluorescent intercalator displacement, at 7.9 µM, hits give high values
row,SMILES,inhibition
1,O=C(OC1CN2CCC1CC2)C1c2ccccc2C=Cc2ccccc21 (centres undefined),inactive: 10.5%
2,CCOC(=O)N1CCC(Nc2ccc(C)cc2)CC1,inactive: -4.43%
3,N/C(=N\O)c1c(N)no[n+]1[O-],inactive: -1.36%
4,COc1ccc(C(=O)NCC2(N3CCOCC3)CCCCC2)cc1OC,inactive: -5.63%
5,CN(C)C1(CNC(=O)c2cccc(C#N)c2)CCCCC1,inactive: -3.24%
6,c1ccc(CN2CCC(Nc3ccccc3)CC2)cc1,inactive: 2.83%
7,CCCN1CCC(Nc2cc(OC)cc(OC)c2)CC1,inactive: -0.37%
8,N#Cc1ccc(C(=O)NCC2(N3CCCCC3)CCCCC2)cc1,inactive: 9.87%
9,CC(C)(C)OC(=O)N1CCC(N(C(=O)c2ccccc2)c2ccc(Cl)cc2)CC1,inactive: -47.3%
10,CN(C)c1ccc(C(=O)NCC2(N3CCCCC3)CCCCC2)cc1,inactive: 1.92%
11,CCN1CCC(Nc2cccc(F)c2)CC1,inactive: 3.41%
12,COc1cc(OC)cc(C(=O)NCC2(N3CCCCC3)CCCCC2)c1,inactive: 4.67%
13,CN1CCC(Nc2ccc(Cl)cc2)CC1,inactive: 4.46%
14,CCCOc1ccc(C)cc1CN(CCCl)CCCl,inactive: 9.79%
15,COc1cccc(C(=O)N(c2cc(C)cc(C)c2)C2CCN(C(=O)OC(C)(C)C)CC2)c1,inactive: -39.1%
16,COc1cc(OC)cc(C(=O)NCC2(N3CCOCC3)CCCCC2)c1,inactive: -4.54%
17,CCC(CO)(C(=O)OC1CN2CCC1CC2)c1ccccc1 (centres undefined),inactive: 3.78%
18,CC(C)(C)OC(=O)N1CCC(Nc2ccccc2)CC1,inactive: -15.6%
19,O=C(O)C1(Nc2ccccc2)CCN(Cc2ccccc2)CC1,inactive: -5.17%
20,CCCOc1ccc(C(=O)NCC2(N(C)C)CCCCC2)cc1,inactive: 2.46%
21,CCOc1ncccc1C(=O)NCC1(N2CCOCC2)CCCCC1,inactive: -9.58%
22,CN1CCC(Nc2ccc(F)c(Cl)c2)CC1,inactive: 2.13%
23,N#CC1(Nc2ccccc2)CCN(Cc2ccccc2)CC1,inactive: -0.86%
24,O=C(OC1CN2CCC1CC2)C1c2ccccc2Oc2ccccc21 (centres undefined),inactive: 18.2%
25,CCOC(=O)N1CCC(Nc2ccc(OC)cc2)CC1,inactive: 0.34%
26,Cc1cc(C)cc(N(C(=O)c2ccccc2)C2CCN(C(=O)OC(C)(C)C)CC2)c1,inactive: -53.7%
27,O=C(NCC1(N2CCOCC2)CCCCC1)c1cc2ccccc2o1,inactive: -10.5%

row,SMILES,inhibition
1,CSc1ccccc1C(=O)NCC1(N2CCCCC2)CCCCC1,inactive: -5.55%
2,COc1ccc(C(=O)NCC2(N3CCCCC3)CCCCC2)cc1,inactive: -9.87%
3,CC(C)(C)OC(=O)N1CCC(N(C(=O)c2ccccc2)c2ccc(F)cc2)CC1,inactive: -31.3%
4,COc1ccc(C(=O)NCC2(N3CCCCC3)CCCCC2)c(OC)c1OC,inactive: 2.38%
5,O=C(NCC1(N2CCCCC2)CCCCC1)c1ccc(=O)[nH]c1,inactive: -0.81%
6,CCOC(=O)N1CCC(Nc2cccc(C)c2)CC1,inactive: -4.91%
7,COc1cc(C(=O)NCC2(N(C)C)CCCCC2)ccc1OC(F)F,inactive: 0.42%
8,Cc1ccc(OCC(C)C)c(CN(CCCl)CCCl)c1,inactive: 18.8%
9,O=C(NCC1(N2CCCCC2)CCCCC1)c1ccc(F)cc1,inactive: -2.79%
10,CCOC(=O)N1CCC(Nc2ccc(F)cc2)CC1,inactive: -2.14%
11,COc1ccc(NC2CCN(CCc3ccccc3)CC2)c(OC)c1,inactive: 11.3%
12,CCOc1ccc(C)cc1CN(CCCl)CCCl,inactive: 6.18%
13,O=C(NCC1(N2CCOCC2)CCCCC1)c1cc(=O)[nH]c2ccccc12,inactive: -7.11%
14,COc1cc(C(=O)NCC2(N3CCCCC3)CCCCC2)ccc1OC(F)F,inactive: 2.5%
15,COc1ccc(NC2CCN(C(=O)OC(C)(C)C)CC2)cc1,inactive: -6.08%
16,CN1CCN(CCOC(=O)C(O)(c2ccccc2)c2ccccc2)CC1,inactive: 4.31%
17,O=C(NCC1(N2CCCCC2)CCCCC1)c1cccc(C(F)(F)F)c1,inactive: 2.78%
18,CCN1CCC(Nc2ccc(Cl)cc2)CC1,inactive: 0.4%
19,N#CC1(Nc2ccccc2)CCN(CCc2ccccc2)CC1,inactive: 0.77%
20,O=C(NCC1(N2CCCCC2)CCCCC1)c1cccc([N+](=O)[O-])c1,inactive: 4.8%
21,O=C(NCC1(N2CCCCC2)CCCCC1)c1ccc(OC(F)F)cc1,inactive: -0.65%
22,CCCOc1ccc(C(=O)NCC2(N(C)C)CCCCC2)cc1OC,inactive: 3.48%
23,CN1CCC(Nc2cccc(F)c2)CC1,inactive: 12.3%
24,COc1cc(OC)c(C(=O)NCC2(N(C)C)CCCCC2)cc1OC,inactive: -0.64%
25,CC(C)c1ccc(NC2CCN(C(=O)OC(C)(C)C)CC2)cc1,inactive: -19.8%
26,COc1ccc(CN(CCCl)CCCl)cc1Cl,inactive: 2.02%
27,CN(C)c1cccc(C(=O)NCC2(N3CCCCC3)CCCCC2)c1,inactive: 6.24%
